From ChEMBL document CHEMBL5034007, “Discovery of Methylene Thioacetal-Incorporated α-RgIA Analogues as Potent and Stable Antagonists of the Human α9α10 Nicotinic Acetylcholine Receptor for the Treatment of Neuropathic Pain” (2021) come the findings set out here.

The chains behind the UniProt entries cited, without tags or fusion partners. Residues count along the entry.
UniProt P30926, 22-498 limits assumed, entry inferred from the test as described: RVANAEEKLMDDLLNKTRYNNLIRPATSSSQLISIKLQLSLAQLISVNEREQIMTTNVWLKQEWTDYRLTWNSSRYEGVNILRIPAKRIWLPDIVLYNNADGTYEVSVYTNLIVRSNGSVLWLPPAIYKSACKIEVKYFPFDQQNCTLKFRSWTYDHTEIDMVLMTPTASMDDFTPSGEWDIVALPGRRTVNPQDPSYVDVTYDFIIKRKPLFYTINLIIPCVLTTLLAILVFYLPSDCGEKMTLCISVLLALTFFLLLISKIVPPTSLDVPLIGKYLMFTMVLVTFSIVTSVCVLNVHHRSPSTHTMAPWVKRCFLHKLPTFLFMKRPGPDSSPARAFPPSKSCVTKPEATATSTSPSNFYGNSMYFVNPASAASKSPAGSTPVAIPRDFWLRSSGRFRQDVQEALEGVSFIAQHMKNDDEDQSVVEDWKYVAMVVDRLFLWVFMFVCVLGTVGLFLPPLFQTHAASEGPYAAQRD
UniProt P43681, 27-627 limits assumed, entry inferred from the test as described: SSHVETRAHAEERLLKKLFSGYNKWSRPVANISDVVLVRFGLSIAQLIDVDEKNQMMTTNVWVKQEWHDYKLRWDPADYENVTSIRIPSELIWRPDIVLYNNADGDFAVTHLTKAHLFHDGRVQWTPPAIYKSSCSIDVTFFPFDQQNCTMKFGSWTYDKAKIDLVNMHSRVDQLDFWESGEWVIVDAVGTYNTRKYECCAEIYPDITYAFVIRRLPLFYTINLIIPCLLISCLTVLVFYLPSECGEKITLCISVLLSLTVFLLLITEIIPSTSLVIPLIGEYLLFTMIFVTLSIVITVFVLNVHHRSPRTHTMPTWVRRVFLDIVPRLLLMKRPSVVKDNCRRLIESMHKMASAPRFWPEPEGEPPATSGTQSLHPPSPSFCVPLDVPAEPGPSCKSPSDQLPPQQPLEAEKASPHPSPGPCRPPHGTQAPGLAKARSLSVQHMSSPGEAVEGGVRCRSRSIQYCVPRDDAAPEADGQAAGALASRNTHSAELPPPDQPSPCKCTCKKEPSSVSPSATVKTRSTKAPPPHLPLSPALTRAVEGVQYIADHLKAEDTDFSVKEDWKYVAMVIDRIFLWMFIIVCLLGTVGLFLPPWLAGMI

Structures are written as SMILES.

The target of one assay is Unchecked (Homo sapiens, UniProt P30926+P43681). Kind of assay: Inhibition of human alpha4beta4 nAChR expressed in Xenopus laevis oocytes assessed as inhibition of acetylcholine-induced current response by two-electrode voltage-clamp method. As to conditions: oocyte. Background: In two-electrode clamp one electrode senses voltage and the other passes current.
Assay [1] can be described thus: Inhibition of human alpha6/alpha3beta2beta3 nAChR expressed in Xenopus laevis oocytes assessed as inhibition of acetylcholine-induced current response by two-electrode voltage-clamp method. As to conditions: oocyte.

What is called IC50 is the concentration at which inhibition is half-maximal. Consider `C[C@H](O)[C@H]1NC(=O)[C@@H]2NC(=O)[C@@H](NC(=O)CN)CSSC[C@H](NC(=O)[C@H](CCCNC(=N)N)NC(=O)[C@@H]3CCCN3C(=O)[C@H](CC(O)O)NC1=O)C(=O)N[C@@H](CCCNC(=N)N)C(=O)N[C@@H](Cc1ccc(O)c(I)c1)C(=O)N[C@@H](CCC(N)=O)C(=O)N[C@H](C(=O)N[C@H](CC(=O)N[C@@H](CCCNC(=N)N)C(=O)O)Cc1ccc(O)cc1)CSCS2`, for which the IC50 (with Unchecked; in assay [1]) was more than 10 µM in each case.
